{
  "source": "PubChem BioAssay AID1063",
  "about": "(University of Pittsburgh Molecular Library Screening Center, 2008)",
  "note": "Only a part is listed here, and it is no random draw. The source made the active and inactive calls. Cut-off read from the data, not from the text of the source: active = inhibition above about 50%; inactive = the rest.",
  "data": [
    {"experiment": "antileishmanial activity against promastigotes – primary screen (AID 1063);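 note: promastigotes grown with compound for 44 hours at 28 °C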", "conditions": "Leishmania major promastigotes, resazurin fluorescence viability; at 10 µM; active compounds read high", "values": [
      {"smiles": "COc1ccc(OP(C)(=O)Nc2ccc(Br)cc2)cc1", "note": "(centres undefined)", "inhibition": "inactive: 46.6%"},
      {"smiles": "CCN(CC)CC(O)COC(=O)C(O)(c1ccccc1)C1CCCCC1", "note": "(centres undefined)", "inhibition": "inactive: 33.4%"},
      {"smiles": "CCc1ccc(OP(C)(=O)Nc2cccnc2)cc1", "note": "(centres undefined)", "inhibition": "inactive: 5.17%"},
      {"smiles": "CP(=O)(Oc1ccccc1)N1CCOC1=O", "note": "(centres undefined)", "inhibition": "inactive: -4.86%"},
      {"smiles": "COc1ccccc1OP(C)(=O)Nc1c(C)n(C)n(-c2ccccc2)c1=O", "note": "(centres undefined)", "inhibition": "inactive: -3.4%"},
      {"smiles": "CP(=O)(Nc1ccc(Cl)cc1)Oc1ccc(F)cc1", "note": "(centres undefined)", "inhibition": "inactive: -2.78%"},
      {"smiles": "CC(C)(C)c1ccc(OP(C)(=O)O)cc1", "inhibition": "inactive: -4.49%"},
      {"smiles": "COc1ccccc1OP(C)(=O)Nc1ccccc1Br", "note": "(centres undefined)", "inhibition": "inactive: -4.12%"},
      {"smiles": "CN(C)C(=O)c1c([N+](=O)[O-])cc([N+](=O)[O-])cc1[N+](=O)[O-]", "inhibition": "active: 100%"},
      {"smiles": "CP(=O)(OC12CC3CC(CC(C3)C1)C2)OC12CC3CC(CC(C3)C1)C2", "inhibition": "inactive: 38.2%"},
      {"smiles": "CCOC(=O)c1ccc(NP(C)(=O)Oc2ccc(Cl)cc2)cc1", "note": "(centres undefined)", "inhibition": "inactive: 8.24%"},
      {"smiles": "Cc1cc(C)cc(OP(C)(=O)Nc2cccc(C(F)(F)F)c2)c1", "note": "(centres undefined)", "inhibition": "inactive: 8.39%"},
      {"smiles": "COc1ccc(OP(C)(=O)Nc2ccccc2Br)cc1", "note": "(centres undefined)", "inhibition": "inactive: -0.12%"},
      {"smiles": "COc1ccccc1OP(C)(=O)Nc1ccc(C)c(C)c1", "note": "(centres undefined)", "inhibition": "inactive: -2.44%"},
      {"smiles": "Cc1nc2ccc3ccccc3c2o1.O=[N+]([O-])c1cc([N+](=O)[O-])c(O)c([N+](=O)[O-])c1", "inhibition": "inactive: 43.6%"},
      {"smiles": "CP(=O)(OCCOc1ccccc1)OCCOc1ccccc1", "inhibition": "inactive: -8.67%"},
      {"smiles": "CP(=O)(Nc1ccc(Cl)cc1Cl)Oc1ccccc1", "note": "(centres undefined)", "inhibition": "inactive: -5.19%"},
      {"smiles": "CN(C)CCOC(=O)C(O)(c1ccccc1)C1CCCC1", "note": "(centres undefined)", "inhibition": "inactive: 0.72%"},
      {"smiles": "COc1ccc(OP(C)(=O)Nc2ccccn2)cc1", "note": "(centres undefined)", "inhibition": "inactive: -2.73%"},
      {"smiles": "O=[N+]([O-])c1cc([N+](=O)[O-])c(Nc2ccccn2)c([N+](=O)[O-])c1", "inhibition": "active: 72.6%"},
      {"smiles": "Cc1c(NP(C)(=O)Oc2ccc(C(C)C)cc2)c(=O)n(-c2ccccc2)n1C", "note": "(centres undefined)", "inhibition": "inactive: -6.33%"},
      {"smiles": "CCc1ccc(OP(C)(=O)O)cc1", "inhibition": "inactive: -3.5%"},
      {"smiles": "COc1ccccc1OP(C)(=O)Nc1ccc(C)cc1C", "note": "(centres undefined)", "inhibition": "inactive: 10.3%"},
      {"smiles": "CP(=O)(Nc1ccccn1)Oc1ccccc1", "note": "(centres undefined)", "inhibition": "inactive: 10.6%"},
      {"smiles": "CC(C)c1ccc(OP(C)(=O)Nc2ccc(SC(F)(F)F)cc2)cc1", "note": "(centres undefined)", "inhibition": "inactive: 11%"},
      {"smiles": "CP(=O)(Nc1ccccc1F)Oc1ccccc1", "note": "(centres undefined)", "inhibition": "inactive: -6.28%"},
      {"smiles": "O=C(OCCN1CCN(CCOCc2ccccc2)CC1)C(O)(c1ccccc1)c1ccccc1", "inhibition": "inactive: 7.52%"},
      {"smiles": "COc1ccc(OP(C)(=O)Nc2ccc(SC(F)(F)F)cc2)cc1", "note": "(centres undefined)", "inhibition": "inactive: 22.1%"},
      {"smiles": "CCOC(=O)c1ccc(NP(C)(=O)Oc2ccc(F)cc2)cc1", "note": "(centres undefined)", "inhibition": "inactive: -0.91%"},
      {"smiles": "CCN(CC)CCCOC(=O)C(O)(c1ccccc1)C1CCCCC1", "note": "(centres undefined)", "inhibition": "inactive: 32.6%"},
      {"smiles": "CP(=O)(Nc1ccccc1)Oc1ccc(F)cc1", "note": "(centres undefined)", "inhibition": "inactive: -1.33%"},
      {"smiles": "COc1ccc(OP(C)(=O)Nc2cccc(Br)c2)cc1", "note": "(centres undefined)", "inhibition": "inactive: 10.5%"},
      {"smiles": "COc1ccc(NP(C)(=O)Oc2ccccc2OC)cc1", "note": "(centres undefined)", "inhibition": "inactive: -3.77%"},
      {"smiles": "CN(C)CCOC(=O)C(O)(c1ccccc1)C1CCCCC1", "note": "(centres undefined)", "inhibition": "inactive: 2.42%"},
      {"smiles": "O=[N+]([O-])c1cc([N+](=O)[O-])c(NCC2CCS(=O)(=O)C2)c([N+](=O)[O-])c1", "note": "(centres undefined)", "inhibition": "active: 99.8%"},
      {"smiles": "CCOP(C)(=S)SCC(=O)NC(C)(CC)C(=O)O", "note": "(centres undefined)", "inhibition": "inactive: -5.66%"},
      {"smiles": "CP(=O)(Nc1ccc2c(c1)OCCO2)Oc1ccccc1", "note": "(centres undefined)", "inhibition": "inactive: 3.7%"},
      {"smiles": "Cc1ccccc1NP(C)(=O)Nc1ccccc1C", "inhibition": "inactive: -6.66%"},
      {"smiles": "O=[N+]([O-])c1cc([N+](=O)[O-])c(-n2nnc3ccccc32)c([N+](=O)[O-])c1", "inhibition": "inactive: -8.2%"},
      {"smiles": "Cc1nc2ccc3ccccc3c2s1.O=[N+]([O-])c1cc([N+](=O)[O-])c(O)c([N+](=O)[O-])c1", "inhibition": "inactive: -7%"},
      {"smiles": "COc1ccccc1OP(C)(=O)Nc1c(C)cccc1C", "note": "(centres undefined)", "inhibition": "inactive: -6.45%"},
      {"smiles": "CN1CCCCC1COC(=O)C1(O)c2ccccc2CCc2ccccc21", "note": "(centres undefined)", "inhibition": "inactive: 9.72%"},
      {"smiles": "CP(=O)(Nc1ccc(SC(F)(F)F)cc1)Oc1ccccc1", "note": "(centres undefined)", "inhibition": "inactive: -5.93%"},
      {"smiles": "CCCOc1ccc(NP(C)(=O)Oc2ccc(Cl)cc2)cc1", "note": "(centres undefined)", "inhibition": "active: 87.2%"},
      {"smiles": "CC1=NCCc2c1[nH]c1ccccc21.O=[N+]([O-])c1cc([N+](=O)[O-])c(O)c([N+](=O)[O-])c1", "inhibition": "inactive: -3.34%"},
      {"smiles": "Cc1cc(C)cc(OP(C)(=O)Nc2ccc(C)cc2C)c1", "note": "(centres undefined)", "inhibition": "inactive: -1.49%"},
      {"smiles": "CCOC(=O)c1ccc(NP(C)(=O)Oc2cc(C)cc(C)c2)cc1", "note": "(centres undefined)", "inhibition": "active: 66.3%"},
      {"smiles": "CP(=O)(Nc1cccc(Br)c1)Oc1ccccc1", "note": "(centres undefined)", "inhibition": "inactive: -1.69%"},
      {"smiles": "Cc1cc(C)cc(OP(C)(=O)Nc2ccccn2)c1", "note": "(centres undefined)", "inhibition": "inactive: -2.56%"},
      {"smiles": "Cc1ccc(C)c(NP(C)(=O)Oc2ccccc2)c1", "note": "(centres undefined)", "inhibition": "inactive: 1.47%"},
      {"smiles": "CCN(CC)CCCOC(=O)C(O)(c1ccccc1)c1ccccc1", "inhibition": "inactive: 26.9%"},
      {"smiles": "Cc1cccc(C)c1OP(C)(N)=O", "note": "(centres undefined)", "inhibition": "inactive: -6.96%"},
      {"smiles": "CC(C)(C)c1ccc(OP(C)(=O)Nc2ccc(SC(F)(F)F)cc2)cc1", "note": "(centres undefined)", "inhibition": "inactive: 25.9%"},
      {"smiles": "O=[N+]([O-])c1ccc2c(c1)C=Nc1ccccc1O2", "inhibition": "active: 97.8%"},
      {"smiles": "CCOC(=O)c1ccc(NP(C)(=O)Oc2ccccc2)cc1", "note": "(centres undefined)", "inhibition": "inactive: -4.69%"},
      {"smiles": "Cc1ccc(NP(C)(=O)Oc2ccccc2)c(C)c1", "note": "(centres undefined)", "inhibition": "inactive: -5.02%"},
      {"smiles": "COc1ccccc1OP(C)(=O)Nc1ccc(C)cc1", "note": "(centres undefined)", "inhibition": "inactive: -8.92%"},
      {"smiles": "COc1ccc(OP(C)(=O)Nc2cccc(F)c2)cc1", "note": "(centres undefined)", "inhibition": "inactive: -7.43%"},
      {"smiles": "COc1ccccc1OP(C)(=O)Nc1cc(Cl)ccc1C", "note": "(centres undefined)", "inhibition": "inactive: 1.51%"},
      {"smiles": "Cc1cc(C)cc(OP(C)(N)=O)c1", "note": "(centres undefined)", "inhibition": "inactive: -11.7%"},
      {"smiles": "CP(=S)(Nn1cnnc1)Oc1ccccc1", "note": "(centres undefined)", "inhibition": "inactive: -5.43%"},
      {"smiles": "COc1ccccc1OP(C)(=O)Nc1ccccc1", "note": "(centres undefined)", "inhibition": "inactive: -1.49%"},
      {"smiles": "CP(=O)(Nc1ccccc1Br)Oc1ccccc1", "note": "(centres undefined)", "inhibition": "inactive: -5.15%"},
      {"smiles": "CP(=O)(Oc1ccccc1)OC(c1ccccc1)C(F)(F)F", "note": "(centres undefined)", "inhibition": "inactive: -3.68%"},
      {"smiles": "Cc1cccc(C)c1OP(C)(=O)Nc1ccc(SC(F)(F)F)cc1", "note": "(centres undefined)", "inhibition": "inactive: 16.6%"},
      {"smiles": "Cc1cc(C)cc(OP(C)(=O)Nc2ccc(SC(F)(F)F)cc2)c1", "note": "(centres undefined)", "inhibition": "inactive: 3.35%"},
      {"smiles": "CP(=O)(NC(=O)Nc1ccccc1)Oc1ccccc1", "note": "(centres undefined)", "inhibition": "inactive: -2.35%"},
      {"smiles": "CCOC(=O)c1ccc(NP(C)(=O)Oc2ccc(OC)cc2)cc1", "note": "(centres undefined)", "inhibition": "inactive: -1.06%"},
      {"smiles": "CP(=O)(Nc1ccccn1)Oc1ccc(Cl)cc1", "note": "(centres undefined)", "inhibition": "inactive: 3.27%"}
    ]}
  ]
}
